Measurements as given in patent publication US20250353898A1, “SERPIN PEPTIDE DERIVATIVES AND METHODS OF USING THE SAME” (priority 2022, published 2025).

How the values were obtained:
[1] = system: Eastern Equine Encephalitis (EEEV)
[2] = system: SARS-CoV-2; test: Viral replication of SARS-CoV-2

CCCC[C@H](NC(=O)[C@H](CC(C)C)NC(=O)[C@H](Cc1ccccc1)NC(=O)[C@@H](NC(=O)[C@H](Cc1ccccc1)NC(=O)[C@@H]1CCCN1C(=O)[C@H](CCCCN)NC(=O)[C@H](CC(N)=O)NC(=O)[C@H](Cc1ccccc1)NC(=O)[C@H](CCCCN)NC(=O)[C@@H](NC(C)=O)C(C)C)C(C)C)C(=O)N[C@H](C(=O)N[C@@H](CCC(=O)O)C(=O)N[C@@H](CCC(N)=O)C(=O)N[C@@H](CC(N)=O)C(=O)N[C@H](C(=O)N[C@@H](CCCCN)C(N)=O)[C@@H](C)O)[C@@H](C)CC [SP163M, Ac-VKFNKPFVFL[Nle]IEQNTK-NH2]
viral replication of EEEV [1]: significantly reduce viral replication
viral replication of SARS-CoV-2 [2]: suppressed viral replication
